Reference: ChEMBL document CHEMBL1121479, “Simple beta-lactam compounds derived from 6-aminopenicillanic acid” (1980)

Legend:
Serratia marcescens = assay: Evaluated for the minimum inhibitory concentration (MIC) which inhibits the growth of Serratia marcescens MIT B-43 (gram-negative )
Proteus vulgaris = assay: Evaluated for the minimum inhibitory concentration (MIC) which inhibits the growth of Proteus vulgaris ATCC 6380 (gram-negative )
Salmonella typhimurium = assay: Evaluated for the minimum inhibitory concentration (MIC) which inhibits the growth of Salmonella Typhimurium ATCC 13311 (gram-negative ); settings: salmonella typhimurium a
Klebsiella pneumoniae = assay: Evaluated for the minimum inhibitory concentration (MIC) which inhibits the growth of Klebsiella pneumoniae ATCC 27736 (gram-negative )
Shigella sonnei = assay: Evaluated for the minimum inhibitory concentration (MIC) which inhibits the growth of Shigella sonnei ATCC 11060 (gram-negative )
Pseudomonas aeruginosa = assay: Evaluated for the minimum inhibitory concentration (MIC) which inhibits the growth of Pseudomonas aeruginosa ATCC 9721 (gram-negative ).
Proteus mirabilis = assay: Evaluated for the minimum inhibitory concentration (MIC) which inhibits the growth of Proteus mirabilis MIT B-52 (gram-negative )
Streptococcus pyogenes = assay: Evaluated for the minimum inhibitory concentration (MIC) which inhibits the growth of Streptococcus pyogenes ATCC 10389 (gram-positive)
Enterobacter cloacae = assay: Evaluated for the minimum inhibitory concentration (MIC) which inhibits the growth of Enterobacter cloacae ATCC 13047 (gram-negative )
Staphylococcus aureus = assay: Evaluated for the minimum inhibitory concentration (MIC) which inhibits the growth of Staphylococcus aureus ATCC 25923 (gram-positive)
[1] = test system: Staphylococcus epidermidis; assay: Evaluated for the minimum inhibitory concentration (MIC) which inhibits the growth of Staphylococcus epidermidis ATCC 14990 (gram-positive)
Escherichia coli = assay: Evaluated for the minimum inhibitory concentration (MIC) which inhibits the growth of Escherichia coli ATCC 25922 (gram-negative )

Measured: MIC

CC1(C)SC2[C@@H](Br)C(=O)N2C1O (some centres not stated)
> 100 µg/mL: all assays above
